“Also recorded” adds a separate entry of the source.
Assays:
[1] = Rugulosin analysis of needles by HPLC (toxin in planta); design: species or system Picea glauca; conditions: field site, both years
Description: Rugulosin of purity>95% was used for standards. The presence of rugulosin was then to be determined in a sub-sample of 113 randomly-selected trees of the 330 trees determined to be endophyte positive by antibody. A 100 mg sample of freeze-dried needles was ground to a fine power as describe above and extracted with 10 mL of ice cold petroleum ether by stirring for 45 min under conditions of low light. The flask was kept on ice during the extracting and was covered with aluminium foil to prevent degradation by light. The suspension was filtered by suction and discarded. The needles were returned to the flask and extracted with 10 mL of chloroform for 45 min as above for petroleum ether. The new suspension was then filtered by suction and retained while the needles were discarded. The chloroform extract was washed with 10 mL of 5% NaHCO3 in a separatory funnel. […]
The dried extracts were re-dissolved in 50 μL of acetonitrile, 10 μL was removed and injected into an 1100 series Agilent Technologies HPLC-DAD, using a Synergi Max RP 80A, 250×4.6 column (Phenomonex) and a gradient method adapted from Frisvad (1987). […] Samples were analysed at 389 nm, the maximum UVNIS absorption for rugulosin and peak identity was confirmed by full spectrum data from the diode array detector. The limit of quantification was 150 ng/g freeze dried powdered material; recoveries from spiked needles averaged 75%. […]

[2] = Vermiculin analysis of needles by HPLC (toxin in planta); design: species or system Picea glauca

SMILES	rugulosin in cast needles collected in netting around trees [1]	vermiculin in ELISA-negative samples ([2]; three months post inoculation)	ELISA-positive seedlings that contained vermiculin ([2]; three months post inoculation with 5WS11I1) [%]
Cc1cc(O)c2c(c1)C(=O)[C@]13C(=C2O)C(=O)[C@@H]2[C@H](O)[C@H]1[C@@H]1[C@@H](O)[C@H]3C(=O)C3=C(O)c4c(O)cc(C)cc4C(=O)[C@]312 [rugulosin]	no toxin was present; also recorded: No rugulosin was detected		
CC(=O)C[C@@H]1CCC(=O)/C=C/C(=O)O[C@H](CC(C)=O)CCC(=O)/C=C/C(=O)O1 [vermiculin]		no vermiculin could be detected	30

Reference: patent US10674699B2, “Endophyte enhanced seedlings with increased pest tolerance” (priority 2006, dated 2020)
